Columns and labels:
N[C@H](CS)C(=O)O = test: purified protein; settings: 0.1-30 mM D-cysteine, 50 mM phosphate pH 7.6, 30°C, 5 min, 30.0 °C
NC1(C(=O)O)CC1 = test: purified protein; settings: 0.1-100 mM ACC, 100 mM Na-phosphate pH 7.6

Row | Substance | Km (N[C@H](CS)C(=O)O) [mM] | Km (NC1(C(=O)O)CC1) [mM]
1 | Acd1 (Dcs1) (Fusarium graminearum PH-1) | 18 | –
2 | Acd2 (Fusarium graminearum PH-1) | – | 3.3 ± 0.7
